No end group written: not given here. A value given as a limit tells only on which side of the number the result lay.

The values that follow come from publication PMC11832194, “Cystatin from Austrelaps superbus snake venom as a model for identifying potential inhibitors of Trypanosoma cruzi cruzain” (The Journal of Venomous Animals and Toxins Including …, 2025).

The test system of this data set is NCTC clone 929 fibroblasts. The data set can be described thus: In vitro cytotoxicity on fibroblasts (resazurin). The data set is classed as cell-based, murine. As to conditions: NCTC929 cytotoxicity versus T. cruzi epimastigote trypanocidal activity. As to the method: In these experiments, NCTC clone 929 fibroblasts were cultured in a 96-well plate with 180 µL of minimal essential medium (MEM) supplemented with 10% FBS, penicillin and streptomycin antibiotics. About 2 × 10^4 cells per well were cultured and incubated at 37°C for 48 hours in a 5% CO2 environment with different concentrations of synthetic peptides (500-62.5 µM). Then, 20 µL of a resazurin solution was added, reaching a final concentration of 2 mM. The plate was incubated again at 37°C for 4 hours, and absorbance was monitored at 570 and 600 nm using a Synergy H1 multi-mode spectrophotometer (BIOTEK). GraphPad Prism software determined the half-maximal cytotoxic concentration (CC50) (v.6.01). The CC50 of the reference drug benznidazole was also determined to finally determine the selectivity index
In the case of KIPGGQVVTGPWK [Pep8], the “SI (selectivity index)” value is greater than 1.06.
Under GGLQVVTGPW [Pep5] stands greater than 1.05; under KGGLQVVTGAPWK [Pep7], greater than 1.28.
